Measured data: PubChem BioAssay AID1224833 (University of Georgia, 2016)
Screen: 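Human genes whose knock-down alters rotavirus replication in monkey cells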 (primary screen). Cell system: monkey MA104 kidney cells. Reagents: siRNA pool against human genes, 50 nM. Duration: 48 h knock-down before infection; read 24 h after infection. Challenge: infection with rotavirus strain RV3 two days after transfection; infectious dose for this stage not given. Measured: 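Rotavirus antigen per well by fluorescent immunoassay, normalised to non-targeting control wells on each plate and given as a standard z-score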. Scale: z-score vs non-targeting control: higher = more rotavirus replication than with non-targeting control. Hit rule: In these data the active calls have z-score vs non-targeting control at about -1 or lower, or at about 1 or higher. Calls: active = z-score beyond 1 either way; inactive = z-score within 1 of zero.
The whole screen tested about 12,000 reagents; shown is a part drawn at random. In the full data, about 5,600 (46%) are marked active. 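Active calls cover z-scores past 1 in both directions, so they include lowered as well as raised rotavirus replication.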 Unmarked entries are inactive.

The first 11 records, ahead of the listing:
| gene | z-score vs non-targeting control |
| --- | --- |
| SLC44A4 | -1.64 (active) |
| IQSEC3 | 0.467 |
| HHIPL2 | 1.26 (active) |
| OR2A7 | -0.338 |
| COQ2 | -0.799 |
| CALR3 | -0.0622 |
| WNT1 | 0.258 |
| LRRC28 | 0.216 |
| COQ10B | 0.918 |
| TTLL13 | -2.12 (active) |
| KLHL28 | 0.497 |

Main list, from the first entry:
| gene | z-score vs non-targeting control |
| --- | --- |
| SLC44A4 | -1.64 (active) |
| IQSEC3 | 0.467 |
| HHIPL2 | 1.26 (active) |
| OR2A7 | -0.338 |
| COQ2 | -0.799 |
| CALR3 | -0.0622 |
| WNT1 | 0.258 |
| LRRC28 | 0.216 |
| COQ10B | 0.918 |
| TTLL13 | -2.12 (active) |
| KLHL28 | 0.497 |
| POLR2J3 | 0.793 |
| BRD7 | -0.0774 |
| HOXD3 | -1.2 (active) |
| GPX3 | -1.02 (active) |
| KRT79 | 0.667 |
| ONECUT2 | 1.67 (active) |
| LDAH | 0.628 |
| HEPH | 0.0585 |
| CARD6 | -2.17 (active) |
| OR8B4 | -0.882 |
| ATF7 | -1.87 (active) |
| PCDHA1 | -1.51 (active) |
| NMBR | 1.41 (active) |
| ABLIM2 | -0.0561 |
| RFLNA | 1.26 (active) |
| CD248 | -1.47 (active) |
| HEATR1 | 0.38 |
| CRISP1 | 1.18 (active) |
| PLEKHH2 | 1.37 (active) |
| C1orf162 | -2.4 (active) |
| CRADD | -0.894 |
| AK4 | 0.378 |
| SLC6A17 | 0.146 |
| G0S2 | -2.63 (active) |
| CLDN23 | -0.195 |
| ADGRL4 | -0.879 |
| NONO | -2.5 (active) |
| MBNL3 | -0.23 |
| ARHGAP18 | -1.2 (active) |
| NAA38 | -0.917 |
| TNN | -1.16 (active) |
| BICRAL | 0.815 |
| OR5A1 | -0.252 |
| IQGAP3 | -0.329 |
| CUEDC1 | 0.843 |
| RPF2 | 1.54 (active) |
| AADACL2 | -1.71 (active) |
| FRMD1 | 0.145 |
| BUD23 | -2.03 (active) |
| GIMAP1 | 0.101 |
| COX17 | 1.96 (active) |
| RTP2 | 0.391 |
| HBEGF | -1.04 (active) |
| BAGE4 | 0.875 |
| DPEP3 | 2.9 (active) |
| SMOX | -1.74 (active) |
| OSBPL2 | 1.29 (active) |
| GNB1 | 1.72 (active) |
| SNX15 | -1.03 (active) |
| TEKTL1 | 0.71 |
| MCAM | -0.904 |
| MIEF2 | -0.832 |
| TKT | -1.23 (active) |
| SIN3A | -1.03 (active) |
| PPP1R17 | 0.0619 |
| C1QTNF3 | -1.76 (active) |
| RAB11B | -3 (active) |
| ADPRM | 1.26 (active) |
| ANKAR | -0.621 |
| PTGES3 | -1.34 (active) |
| CD74 | -3.37 (active) |
| ACYP1 | -2.51 (active) |
| RPS17 | -4.15 (active) |
| DHX57 | -0.943 |
| OR10C1 | 0.403 |
| CLECL1 | 0.892 |
| BTN2A2 | -0.467 |
| BCL11B | -0.28 |
| EHD2 | -1.76 (active) |
| RS1 | -2.5 (active) |
| NEIL1 | 0.844 |
| HPDL | 1.83 (active) |
| SCRIB | 0.611 |
| LINC03124 | 0.652 |
| RRM2 | 1.8 (active) |
| APRG1 | -0.896 |
| DTNBP1 | -2.43 (active) |
| PLCB4 | -1.15 (active) |
| TAF9B | 0.868 |
| PKP1 | -1 (active) |
| MED1 | -0.684 |
| RIN1 | -1.18 (active) |
| KRT17 | -0.0978 |
| OR11A1 | -1.6 (active) |
| CXADR | -0.726 |
| OPRL1 | 1.5 (active) |
| COL4A2 | -0.738 |
| DERL3 | 0.794 |
| DNAH10 | -0.385 |
| PCSK5 | 0.941 |
| NSF | -1.16 (active) |
| PCDH12 | -1.14 (active) |
| PRPF4 | 3.03 (active) |
| KLRC2 | -0.316 |
| ARHGAP8 | -2.35 (active) |
| KLHL23 | -0.697 |
| CST11 | -1.39 (active) |
| SLC35D4 | 1.11 (active) |
| NUDT21 | -2.73 (active) |
